Source: patent publication US20120178668A1

T1: rat GC-A (rat), P18910
T1 chain: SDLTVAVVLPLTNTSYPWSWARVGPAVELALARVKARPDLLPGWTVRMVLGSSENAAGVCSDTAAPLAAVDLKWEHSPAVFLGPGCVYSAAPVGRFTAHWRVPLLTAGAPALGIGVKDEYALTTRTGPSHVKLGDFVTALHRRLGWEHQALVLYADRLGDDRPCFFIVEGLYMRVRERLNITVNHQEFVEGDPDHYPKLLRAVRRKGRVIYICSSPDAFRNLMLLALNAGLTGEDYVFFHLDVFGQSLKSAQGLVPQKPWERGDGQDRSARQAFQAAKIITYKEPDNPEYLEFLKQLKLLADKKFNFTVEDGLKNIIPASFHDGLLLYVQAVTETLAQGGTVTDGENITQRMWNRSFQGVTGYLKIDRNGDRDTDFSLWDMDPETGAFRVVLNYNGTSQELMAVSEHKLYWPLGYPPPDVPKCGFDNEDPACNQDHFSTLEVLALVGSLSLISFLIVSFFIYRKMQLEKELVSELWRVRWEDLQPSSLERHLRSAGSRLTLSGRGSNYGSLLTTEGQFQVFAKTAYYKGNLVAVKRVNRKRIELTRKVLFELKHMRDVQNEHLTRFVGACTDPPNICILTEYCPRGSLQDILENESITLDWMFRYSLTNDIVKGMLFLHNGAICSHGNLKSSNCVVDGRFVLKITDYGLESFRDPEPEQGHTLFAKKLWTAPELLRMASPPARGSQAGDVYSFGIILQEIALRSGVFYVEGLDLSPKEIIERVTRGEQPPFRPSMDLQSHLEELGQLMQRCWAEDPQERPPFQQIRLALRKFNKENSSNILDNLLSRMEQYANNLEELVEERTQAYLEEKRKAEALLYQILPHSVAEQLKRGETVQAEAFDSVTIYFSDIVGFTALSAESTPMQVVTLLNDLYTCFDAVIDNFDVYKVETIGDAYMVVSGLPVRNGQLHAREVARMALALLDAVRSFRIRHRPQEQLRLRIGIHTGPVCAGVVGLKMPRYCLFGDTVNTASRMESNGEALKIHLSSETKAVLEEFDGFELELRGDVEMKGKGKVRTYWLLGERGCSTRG

T2: Natriuretic Peptide Receptor-A (NPR-A) of MDCK cells (canine (endogenous in MDCK cells)), A0A8I3
T2 chain: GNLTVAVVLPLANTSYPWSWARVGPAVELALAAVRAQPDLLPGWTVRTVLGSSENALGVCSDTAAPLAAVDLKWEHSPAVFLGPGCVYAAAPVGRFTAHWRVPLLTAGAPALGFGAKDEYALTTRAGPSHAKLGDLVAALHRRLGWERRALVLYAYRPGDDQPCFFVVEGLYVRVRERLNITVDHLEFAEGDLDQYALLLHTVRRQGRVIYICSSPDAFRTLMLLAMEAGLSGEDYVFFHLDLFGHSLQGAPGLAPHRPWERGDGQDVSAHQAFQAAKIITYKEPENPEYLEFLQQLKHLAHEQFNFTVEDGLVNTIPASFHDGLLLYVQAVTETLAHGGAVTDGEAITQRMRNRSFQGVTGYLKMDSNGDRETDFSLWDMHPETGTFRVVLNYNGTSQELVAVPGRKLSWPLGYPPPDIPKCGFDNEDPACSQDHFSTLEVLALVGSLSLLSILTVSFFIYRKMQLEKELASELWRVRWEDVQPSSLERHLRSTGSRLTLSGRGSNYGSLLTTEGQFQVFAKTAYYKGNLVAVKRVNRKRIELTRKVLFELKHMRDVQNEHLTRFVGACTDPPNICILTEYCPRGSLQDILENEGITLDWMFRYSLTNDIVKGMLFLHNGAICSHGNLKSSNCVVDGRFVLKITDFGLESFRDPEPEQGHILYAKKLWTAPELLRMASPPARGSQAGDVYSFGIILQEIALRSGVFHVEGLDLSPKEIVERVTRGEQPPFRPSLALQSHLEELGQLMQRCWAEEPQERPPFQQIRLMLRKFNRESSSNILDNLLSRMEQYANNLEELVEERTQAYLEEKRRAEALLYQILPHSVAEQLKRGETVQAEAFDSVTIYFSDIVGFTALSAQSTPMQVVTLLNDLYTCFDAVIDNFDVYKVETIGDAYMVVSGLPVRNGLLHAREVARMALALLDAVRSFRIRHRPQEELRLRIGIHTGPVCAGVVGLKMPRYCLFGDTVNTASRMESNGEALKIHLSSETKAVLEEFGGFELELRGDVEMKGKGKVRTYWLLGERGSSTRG

T3: NPR-A of HeLa cells, P16066
T3 chain: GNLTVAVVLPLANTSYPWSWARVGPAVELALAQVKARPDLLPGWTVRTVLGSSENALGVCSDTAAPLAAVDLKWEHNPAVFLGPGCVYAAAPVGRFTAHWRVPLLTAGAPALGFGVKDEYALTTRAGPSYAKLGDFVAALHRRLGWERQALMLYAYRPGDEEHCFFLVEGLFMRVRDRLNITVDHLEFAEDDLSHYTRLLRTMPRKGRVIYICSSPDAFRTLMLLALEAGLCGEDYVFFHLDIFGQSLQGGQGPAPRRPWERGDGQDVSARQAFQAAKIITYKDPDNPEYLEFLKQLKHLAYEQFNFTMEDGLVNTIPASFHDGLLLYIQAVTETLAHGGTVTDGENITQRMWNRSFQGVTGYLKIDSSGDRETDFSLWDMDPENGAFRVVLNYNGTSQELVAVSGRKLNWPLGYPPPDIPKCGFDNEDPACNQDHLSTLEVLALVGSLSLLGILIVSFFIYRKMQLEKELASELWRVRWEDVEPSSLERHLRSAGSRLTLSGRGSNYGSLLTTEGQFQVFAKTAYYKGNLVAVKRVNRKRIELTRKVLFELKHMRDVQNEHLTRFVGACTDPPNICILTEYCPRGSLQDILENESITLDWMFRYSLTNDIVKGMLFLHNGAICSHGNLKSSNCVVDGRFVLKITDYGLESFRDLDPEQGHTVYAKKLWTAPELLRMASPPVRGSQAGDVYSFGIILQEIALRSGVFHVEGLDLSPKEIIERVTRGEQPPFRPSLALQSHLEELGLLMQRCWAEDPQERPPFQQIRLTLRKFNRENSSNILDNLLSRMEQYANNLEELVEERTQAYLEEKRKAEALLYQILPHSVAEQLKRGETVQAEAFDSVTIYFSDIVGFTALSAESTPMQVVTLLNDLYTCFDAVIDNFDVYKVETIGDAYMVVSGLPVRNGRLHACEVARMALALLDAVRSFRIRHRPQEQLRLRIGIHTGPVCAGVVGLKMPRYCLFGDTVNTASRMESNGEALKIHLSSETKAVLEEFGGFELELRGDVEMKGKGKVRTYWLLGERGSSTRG


Legend:
Assay in all cases: cell-based or functional assay
rat GC-A (rat), P18910 = target: T1, rat GC-A (rat), P18910
[1] = target: T2, Natriuretic Peptide Receptor-A (NPR-A) …
[2] = target: T3, NPR-A of HeLa cells, P16066

| Binder | mean relaxation of denuded aortic rings, % of KCl response (% of KCl response) (rat GC-A (rat), P18910) | -Log10 EC50 (pEC50) of cGMP accumulation in MDCK cells [1] | EC50 of cGMP accumulation in MDCK cells [1] [nM] | -Log10EC50 (pEC50) of cGMP accumulation in HeLa cells [2] | EC50 of cGMP accumulation in HeLa cells [2] [nM] |
| --- | --- | --- | --- | --- | --- |
| SPKMVQGSGCFGFPLDRIGSVSGLGCNRIMQNPPKKFSGE (modifications not checked) [BTT] | 62.1 | 8.18 | 7.06 |  |  |
| EVKYDPCFGFPLDRIGSVSGLGCNRIMQNPPKKFSGE (modifications not checked) [DTT] | 58.9 | 7.72 | 21.2 |  |  |
| SDSKIGNGCFGHKIDRINHVSNLGCNRIMQNPPKKFSGE (modifications not checked) [TDT] |  |  |  | 7.21 | 70.4 |
| SDSKIGNGCFGAKIDRINHVSNLGCNRIMQNPPKKFSGE (modifications not checked) [H12A TDT] |  |  |  | 6.65 | 229 |
| SDSKIGNGCFGHKIDRINHASNLGCNRIMQNPPKKFSGE (modifications not checked) [V20A TDT] |  |  |  | 6.42 | 455 |
| SDSKIGNGCFGHKIDRINHVSGLGCNRIMQNPPKKFSGE (modifications not checked) [N22G TDT] |  |  |  | 8.5 | 3.14 |
| SDSKIGNGCFGRKIDRINHVSNLGCNRIMQNPPKKFSGE (modifications not checked) [H12R TDT] |  |  |  | 8.05 | 8.89 |
